Pooled drug test results. Numbers come from NIAID ChemDB, via PubChem.

Shared fields: growth or infection tests; organism: HIV-1; cell line: MT-4; endpoint: EC95

Blank or dashed fields: not listed here. Neighbouring rows are from separate reports. ECn: concentration that inhibits the pathogen or its effect by n%.

smiles	strain or isolate	changes	read by	setting	value
COc1cncc(-c2cnc(C(C)(C)N3CCN(C[C@@H](O)C[C@@H](Cc4nnc(C)o4)C(=O)N[C@H]4c5ccccc5OC[C@H]4O)[C@H](C(=O)NCC(F)(F)F)C3)o2)c1	K-60 Clinical isolate	PR-L10I M46I I54V Q58E L63P I64V V77I V82F I84V L90M I93L	p24	-	>1 µM
CC(=O)N1CCOCC1c1nc(C(=O)NCc2ccc(F)cc2)c(O)c(=O)n1C	IIIB	-	p24 / ELISA	50% human serum	>1 µM
CC(C)(c1ncc(-c2ccc(Cl)cc2)o1)N1CCN(C[C@@H](O)C[C@@H](Cc2nnc(-c3ccccc3)o2)C(=O)N[C@H]2c3ccccc3OC[C@H]2O)[C@H](C(=O)NCC(F)(F)F)C1	NL4-3 WT	-	p24	-	≤0.008 µM
O=S(Cc1[nH]c2ccc(Cl)cc2c1Sc1ccccc1)c1ccccc1	IIIB	-	p24 / ELISA	-	0.8 µM
CN(C)S(=O)(=O)N(C)C1CCn2c1nc(C(=O)NCc1ccc(F)cc1)c(O)c2=O	IIIB	-	p24 / ELISA	10% FBS	>1 µM
CC(C)(c1ncc(-c2ccc(Cl)cc2)o1)N1CCN(C[C@@H](O)C[C@@H](Cc2nnco2)C(=O)N[C@H]2c3ccccc3OC[C@H]2O)[C@H](C(=O)NCC(F)(F)F)C1	K-60 Clinical isolate	PR-L10I M46I I54V Q58E L63P I64V V77I V82F I84V L90M I93L	p24	-	0.063 µM
CCc1cc(NCc2nc3c(Cl)ccc(Cl)c3o2)c(=O)[nH]c1C	WMJ-2	-	p24	-	0.2 µM
CN1CCOCC1c1nc(C(=O)NCCc2ccccc2)c(O)c(=O)n1C	IIIB	-	p24 / ELISA	10% FBS	>8 µM
Cc1nnc(C[C@H](C[C@H](O)CN2CCN(Cc3ccc(-c4ccc(Cl)cc4)o3)C[C@H]2C(=O)NCC(F)(F)F)C(=O)N[C@H]2c3ccccc3OC[C@H]2O)o1	Q-60 Clinical isolate	PR-L10I N37S R41K M46I I54V I62V L63P A71V V77I V82A L90M I93L	p24	-	0.031 µM
CC(C)(C)NC(=O)[C@@H]1C[C@@H]2CCCC[C@@H]2CN1C[C@@H](O)[C@H](Cc1ccccc1)NC(=O)[C@H](CC(N)=O)NC(=O)c1ccc2ccccc2n1	NL4-3	PR-M46I V82T I84V	p24	-	0.05 µM
Cc1cc(C)c(-n2nnnc2SCC(=O)Nc2ccc(F)cc2Br)c(C)c1	-	-	p24	-	<10 µM
Cc1cccc(C)c1CNC(=O)[C@H]1N(C(=O)[C@@H](O)C[C@@H](Cc2ccccc2)C(=O)N[C@H]2c3ccccc3C[C@H]2O)CSC1(C)C	-	PR-V18C	p24	-	0.031 µM
Cc1ccnc2c1NC(=O)c1cccnc1N2C1CC1	-	RT-K70R	-	-	0.4 µM
CC(=O)Nc1ccc(Cl)c(NC(=O)CSc2nnnn2-c2c(C)cc(C)cc2C)c1	-	-	p24	-	<10 µM
CCNC(=O)N1CCN(C)C(c2nc(C(=O)NCc3ccc(F)cc3)c(O)c(=O)n2C)C1	IIIB	-	p24 / ELISA	10% FBS	0.25 µM
Cc1ccnc(C(=O)CC(=O)c2cccc(Cc3ccccc3)c2)c1	IIIB	-	p24	-	5 µM
CCc1cc(NCc2nc3c(C)ccc(C)c3o2)c(=O)[nH]c1C	MN	-	p24	-	0.05 µM
Cc1nnc(C[C@H](C[C@H](O)CN2CCN(C(C)(C)c3ncc(-c4ccc(F)cc4)o3)C[C@H]2C(=O)NCC(F)(F)F)C(=O)N[C@H]2c3ccccc3OC[C@H]2O)o1	K-60 Clinical isolate	PR-L10I M46I I54V Q58E L63P I64V V77I V82F I84V L90M I93L	p24	-	0.125 µM
CC(C)=CCN1Cc2cc(Cl)cc3[nH]c(=S)n(c23)C[C@@H]1C	IIIB	-	p24 / ELISA	-	0.4 µM
CCCc1nnc(C[C@H](C[C@H](O)CN2CCN(C(C)(C)c3ncc(-c4ccc(Cl)cc4)o3)C[C@H]2C(=O)NCC(F)(F)F)C(=O)N[C@H]2c3ccccc3OC[C@H]2O)o1	K-60 Clinical isolate	PR-L10I M46I I54V Q58E L63P I64V V77I V82F I84V L90M I93L	p24	-	0.016 µM
Cc1cc(C)c(-n2nnnc2SCC(=O)Nc2ccc(-n3cccn3)cc2)c(C)c1	-	-	p24	-	<10 µM
CC(C)Oc1ccc(Cc2ccccc2)cc1C(=O)CC(=O)C(=O)O	IIIB	-	p24	-	0.1 µM
O=S(Cc1[nH]c2ccccc2c1Sc1ccccc1)c1ccccc1	IIIB	-	p24 / ELISA	-	0.4 µM
CN1CCS(=O)(=O)CC1c1nc(C(=O)NCc2ccc(F)cc2)c(O)c(=O)n1C	IIIB	-	p24 / ELISA	50% human serum	>1 µM
CNC(=O)c1[nH]c2ccc(Cl)cc2c1Sc1ccccc1	IIIB	-	p24 / ELISA	-	0.2 µM
Cc1cc(C)c(-n2nnnc2SCC(=O)Nc2ccccc2[N+](=O)[O-])c(C)c1	-	-	p24	-	<10 µM
CN(C)C(=O)c1[nH]c2ccccc2c1Sc1ccccc1	IIIB	-	p24 / ELISA	-	>3 µM
O=c1[nH]cnc2c1ncn2[C@H]1CC[C@@H](CO)O1	IIIB	-	p24	-	6.25 µM
C[C@H]1C[C@@H](c2nc(C(=O)NCc3ccc(F)cc3)c(O)c(=O)n2C)N(C)C1	IIIB	-	p24 / ELISA	50% human serum	>1 µM
Cc1cc(C)c(-n2nnnc2SCC(=O)Nc2cc(C)on2)c(C)c1	-	-	p24	-	<10 µM
CN(C(=O)Cn1cccn1)C1CCCn2c1nc(C(=O)NCc1ccc(F)cc1)c(O)c2=O	IIIB	-	p24 / ELISA	50% human serum	>1 µM
CC1CCC(c2nc(C(=O)NCc3ccc(F)cc3)c(O)c(=O)n2C)N1C	IIIB	-	p24 / ELISA	50% human serum	>1 µM
Cc1ccccc1Cc1cccc(C(=O)CC(=O)C(=O)O)c1	IIIB	-	p24	-	0.61 µM
Cc1cn([C@H]2C[C@H](N=[N+]=[N-])[C@@H](CO)O2)c(=O)[nH]c1=O	rHXB2	-	p24	-	0.025 µM
COC(=O)c1[nH]c2ccc(Cl)cc2c1Sc1ccccc1	IIIB	-	p24 / ELISA	-	1.5 µM
O=C1N(Cc2ccc(CO)cc2)[C@H](Cc2ccccc2)[C@H](O)[C@@H](O)[C@@H](Cc2ccccc2)N1Cc1ccc(CO)cc1	NL4-3	-	p24	-	0.2 µM
CC(C)=CCN1Cc2cccc3[nH]c(=S)n(c23)C[C@@H]1C	rA17	-	p24	-	100 µM

The last 3 rows once more:

COC(=O)c1[nH]c2ccc(Cl)cc2c1Sc1ccccc1 ; strain or isolate: IIIB ; read by: p24 / ELISA ; value: 1.5 µM
O=C1N(Cc2ccc(CO)cc2)[C@H](Cc2ccccc2)[C@H](O)[C@@H](O)[C@@H](Cc2ccccc2)N1Cc1ccc(CO)cc1 ; strain or isolate: NL4-3 ; read by: p24 ; value: 0.2 µM
CC(C)=CCN1Cc2cccc3[nH]c(=S)n(c23)C[C@@H]1C ; strain or isolate: rA17 ; read by: p24 ; value: 100 µM